Results on 69 molecules are retold here after PubChem BioAssay AID588689 (Southern Research Specialized Biocontainment Screening …, 2011).

Amino acid sequences for entries named in this document (tags omitted).
UniProt P29991, whole entry: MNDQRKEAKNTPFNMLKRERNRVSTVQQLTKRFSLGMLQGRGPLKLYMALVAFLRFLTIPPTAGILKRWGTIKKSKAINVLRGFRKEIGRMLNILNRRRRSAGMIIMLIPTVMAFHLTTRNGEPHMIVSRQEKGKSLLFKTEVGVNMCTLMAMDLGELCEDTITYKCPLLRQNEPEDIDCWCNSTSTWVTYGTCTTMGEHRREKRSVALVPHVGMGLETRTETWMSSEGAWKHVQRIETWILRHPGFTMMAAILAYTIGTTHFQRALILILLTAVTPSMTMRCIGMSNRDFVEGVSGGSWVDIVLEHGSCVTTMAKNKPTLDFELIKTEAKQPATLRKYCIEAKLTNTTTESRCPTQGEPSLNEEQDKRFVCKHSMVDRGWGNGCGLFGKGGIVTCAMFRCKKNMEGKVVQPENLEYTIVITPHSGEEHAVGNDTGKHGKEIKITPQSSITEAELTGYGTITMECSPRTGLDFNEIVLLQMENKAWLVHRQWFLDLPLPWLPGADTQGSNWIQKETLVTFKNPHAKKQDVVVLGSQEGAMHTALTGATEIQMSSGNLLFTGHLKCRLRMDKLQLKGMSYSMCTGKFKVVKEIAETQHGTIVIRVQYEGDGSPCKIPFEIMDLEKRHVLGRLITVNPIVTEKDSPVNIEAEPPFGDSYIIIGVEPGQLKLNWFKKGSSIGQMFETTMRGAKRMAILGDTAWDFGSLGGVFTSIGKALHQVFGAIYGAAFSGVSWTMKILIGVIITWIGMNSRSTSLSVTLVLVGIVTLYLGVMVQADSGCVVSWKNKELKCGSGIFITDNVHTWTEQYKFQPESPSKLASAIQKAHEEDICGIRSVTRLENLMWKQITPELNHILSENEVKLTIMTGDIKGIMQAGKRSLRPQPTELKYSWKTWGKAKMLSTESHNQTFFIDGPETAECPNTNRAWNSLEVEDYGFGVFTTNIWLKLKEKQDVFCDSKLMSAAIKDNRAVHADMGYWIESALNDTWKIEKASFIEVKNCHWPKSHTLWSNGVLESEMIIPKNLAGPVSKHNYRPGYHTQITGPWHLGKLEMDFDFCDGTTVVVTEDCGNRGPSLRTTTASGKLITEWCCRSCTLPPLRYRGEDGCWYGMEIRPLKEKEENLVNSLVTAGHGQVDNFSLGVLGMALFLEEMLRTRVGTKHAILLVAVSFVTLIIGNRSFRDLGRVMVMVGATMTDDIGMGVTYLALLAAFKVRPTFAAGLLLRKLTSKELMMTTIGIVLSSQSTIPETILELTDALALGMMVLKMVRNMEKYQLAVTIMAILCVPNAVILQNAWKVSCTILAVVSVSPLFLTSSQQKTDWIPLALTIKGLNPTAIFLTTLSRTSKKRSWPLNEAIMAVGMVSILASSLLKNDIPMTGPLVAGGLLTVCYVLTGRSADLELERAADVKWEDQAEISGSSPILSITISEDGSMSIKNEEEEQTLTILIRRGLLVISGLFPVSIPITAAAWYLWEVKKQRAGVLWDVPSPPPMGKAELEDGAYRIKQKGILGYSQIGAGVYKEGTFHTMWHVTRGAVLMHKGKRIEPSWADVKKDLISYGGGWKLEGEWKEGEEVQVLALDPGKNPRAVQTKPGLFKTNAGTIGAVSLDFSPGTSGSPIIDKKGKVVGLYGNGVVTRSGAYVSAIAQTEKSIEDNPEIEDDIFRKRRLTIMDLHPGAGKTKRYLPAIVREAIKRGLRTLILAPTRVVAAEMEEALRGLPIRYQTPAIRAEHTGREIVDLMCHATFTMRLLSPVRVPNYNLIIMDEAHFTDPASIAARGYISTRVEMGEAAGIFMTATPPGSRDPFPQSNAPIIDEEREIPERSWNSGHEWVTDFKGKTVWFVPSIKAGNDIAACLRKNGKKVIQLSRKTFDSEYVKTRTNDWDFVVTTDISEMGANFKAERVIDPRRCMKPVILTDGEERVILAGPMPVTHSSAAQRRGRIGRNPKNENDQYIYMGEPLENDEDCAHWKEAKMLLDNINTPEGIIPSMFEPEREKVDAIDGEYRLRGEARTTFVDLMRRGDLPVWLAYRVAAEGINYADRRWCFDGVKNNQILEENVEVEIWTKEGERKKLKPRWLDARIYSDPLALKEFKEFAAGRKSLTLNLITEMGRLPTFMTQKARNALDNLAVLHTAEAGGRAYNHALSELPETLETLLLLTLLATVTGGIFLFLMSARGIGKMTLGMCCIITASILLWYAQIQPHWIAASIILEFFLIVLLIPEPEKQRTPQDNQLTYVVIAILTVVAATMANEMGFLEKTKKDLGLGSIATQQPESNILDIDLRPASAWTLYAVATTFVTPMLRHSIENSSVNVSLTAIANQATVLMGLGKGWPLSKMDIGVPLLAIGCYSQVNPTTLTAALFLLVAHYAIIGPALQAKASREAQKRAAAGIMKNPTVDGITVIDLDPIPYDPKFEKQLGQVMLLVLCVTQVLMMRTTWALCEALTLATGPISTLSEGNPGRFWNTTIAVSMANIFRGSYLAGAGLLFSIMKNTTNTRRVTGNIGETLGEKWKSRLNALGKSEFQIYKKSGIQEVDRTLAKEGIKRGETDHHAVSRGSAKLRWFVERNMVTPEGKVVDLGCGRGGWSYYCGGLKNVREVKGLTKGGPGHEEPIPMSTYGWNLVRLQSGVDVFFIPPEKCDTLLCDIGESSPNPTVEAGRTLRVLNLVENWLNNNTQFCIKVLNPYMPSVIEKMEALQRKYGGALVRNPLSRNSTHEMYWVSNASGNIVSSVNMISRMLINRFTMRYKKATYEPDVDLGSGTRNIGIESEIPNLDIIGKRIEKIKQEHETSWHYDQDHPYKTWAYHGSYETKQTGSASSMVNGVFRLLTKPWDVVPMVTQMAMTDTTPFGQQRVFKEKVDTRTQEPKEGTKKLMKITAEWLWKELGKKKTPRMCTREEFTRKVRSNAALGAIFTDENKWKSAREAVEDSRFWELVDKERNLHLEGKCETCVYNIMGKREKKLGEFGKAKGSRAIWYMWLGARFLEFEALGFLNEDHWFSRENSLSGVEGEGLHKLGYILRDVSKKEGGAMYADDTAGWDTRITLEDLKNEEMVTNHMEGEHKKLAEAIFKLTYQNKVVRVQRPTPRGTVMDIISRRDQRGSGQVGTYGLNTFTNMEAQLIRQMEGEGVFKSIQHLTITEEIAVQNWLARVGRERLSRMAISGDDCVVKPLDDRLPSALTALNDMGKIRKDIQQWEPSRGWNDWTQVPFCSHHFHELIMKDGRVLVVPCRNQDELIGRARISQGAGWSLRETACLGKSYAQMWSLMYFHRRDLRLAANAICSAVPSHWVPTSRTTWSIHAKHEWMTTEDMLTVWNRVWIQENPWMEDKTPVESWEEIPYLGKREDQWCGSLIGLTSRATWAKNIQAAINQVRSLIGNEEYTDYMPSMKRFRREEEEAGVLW

Structures are written as SMILES. Only a part is listed here, and it is no random draw. Potency and affinity values are given separately. Some structures show a salt or complex split into parts, the way the source records it. Calls of active or inactive are those of the source. Cut-off read from the data, not from the text of the source: inconclusive = inhibition above about 29% without an active follow-up result; inactive = below that.

In the test the target is Genome polyprotein (Dengue virus type 2 (strain 16681-PDK53)) (UniProt P29991). Nature of the test: Dengue-2 NS5 methyltransferase inhibitors, primary screen, biochemical, confirmation dose response (AID 588689). Conditions: Dengue-2 NS5 methyltransferase capping enzyme assay, at 25 µM, active compounds read high.
Turning to `Cc1cc(C)cc(OP(C)(N)=O)c1` (centres undefined), the inhibition (in general, the change of the read-out against control, counted positive when it falls) was inactive: -3.7%.

Regarding `CCOC(=O)c1ccc(NP(C)(=O)Oc2ccccc2)cc1` (centres undefined), the inhibition is inactive: 1.28%.

Take `COc1ccccc1OP(C)(=O)Nc1ccc(C)cc1` (centres undefined): the inhibition was inactive: 5.47%. The same measure for `Cc1ccc(NP(C)(=O)Oc2ccccc2)c(C)c1` (centres undefined): inactive: -1.59%; for `CC(C)(C)c1ccc(OP(C)(=O)Nc2ccc(SC(F)(F)F)cc2)cc1` (centres undefined): inactive: -3.19%. The same measure for `Cc1cccc(C)c1OP(C)(N)=O` (centres undefined): inactive: -4.38%; for `O=[N+]([O-])c1ccc2c(c1)C=Nc1ccccc1O2`: inactive: 6.36%; for `O=[N+]([O-])c1cc([N+](=O)[O-])c(Nc2cccnc2)c([N+](=O)[O-])c1`: inactive: -7.36%.

For the molecule `CCN(CC)CCCOC(=O)C(O)(c1ccccc1)c1ccccc1`, the inhibition was inactive: -18.6%. The result for `CP(=O)(Nc1ccccn1)Oc1ccc(Cl)cc1` (centres undefined) reads inactive: -0.7%.

In the case of `CCOP(C)(=S)SCC(=O)NC(C)C(=O)O` (centres undefined), the inhibition is inactive: 0.69%. Consider `CCOC(=O)c1ccc(NP(C)(=O)Oc2ccc(OC)cc2)cc1` (centres undefined), for which the inhibition is inactive: -4.6%. The result for `CCc1ccc(OP(C)(=O)N2CCN(c3ccc([N+](=O)[O-])cc3)CC2)cc1` (centres undefined) reads inactive: 2.33%; that for `CP(=O)(NC(=O)Nc1ccccc1)Oc1ccccc1` (centres undefined), inactive: 0.68%; that for `Cc1cc(C)cc(OP(C)(=O)Nc2ccc(SC(F)(F)F)cc2)c1` (centres undefined), inactive: -6.73%. The same measure for `Cc1cccc(C)c1OP(C)(=O)Nc1ccc(SC(F)(F)F)cc1` (centres undefined): inactive: -2.96%; for `Cc1ccc(Nc2c([N+](=O)[O-])cc([N+](=O)[O-])cc2[N+](=O)[O-])cc1`: inactive: 23.6%; for `CP(=O)(Oc1ccccc1)OC(c1ccccc1)C(F)(F)F` (centres undefined): inactive: -0.76%.

`COc1ccccc1OP(C)(=O)Nc1ccccc1` (centres undefined): the inhibition was inactive: 8.53%. With `CP(=O)(Nc1ccccc1Br)Oc1ccccc1` (centres undefined), the inhibition is inactive: 3.89%. For `CP(=S)(Nn1cnnc1)Oc1ccccc1` (centres undefined), the inhibition was inactive: -0.69%. The same measure for `CP(=O)(OC12CC3CC(CC(C3)C1)C2)OC12CC3CC(CC(C3)C1)C2`: inactive: 2.45%; for `CCOC(=O)c1ccc(NP(C)(=O)Oc2ccc(Cl)cc2)cc1` (centres undefined): inactive: -3.21%.

Regarding `CN(C)C(=O)c1c([N+](=O)[O-])cc([N+](=O)[O-])cc1[N+](=O)[O-]`, the inhibition was inactive: -1.55%. The result for `CP(=O)(Nc1ccc(Cl)cc1)Oc1ccc(F)cc1` (centres undefined) reads inactive: 0%. On to `CC(C)(C)c1ccc(OP(C)(=O)O)cc1`, for which the inhibition is inactive: -5.72%. Regarding `COc1ccccc1OP(C)(=O)Nc1ccccc1Br` (centres undefined), the inhibition is inactive: -2.99%.

Consider `CP(=O)(Oc1ccccc1)N1CCOC1=O` (centres undefined), for which the inhibition is inactive: 0%.

With `CCc1ccc(OP(C)(=O)Nc2cccnc2)cc1` (centres undefined), the inhibition was inactive: -4.44%. Take `COc1ccccc1OP(C)(=O)Nc1c(C)n(C)n(-c2ccccc2)c1=O` (centres undefined): the inhibition was inactive: -3.97%. The result for `O=C(OCCCN1CCCC1)C(O)(c1ccccc1)C1CCCCC1` (centres undefined) reads inactive: 0%. With `CCN(CC)CC(O)COC(=O)C(O)(c1ccccc1)C1CCCCC1` (centres undefined), the inhibition is inactive: -2.46%. The same measure for `COc1ccc(OP(C)(=O)Nc2ccc(Br)cc2)cc1` (centres undefined): inactive: -2.58%; for `CCc1ccc(OP(C)(=O)O)cc1`: inactive: -0.69%; for `CP(=O)(Nc1ccccn1)Oc1ccccc1` (centres undefined): inactive: -8.84%. Take `COc1ccccc1OP(C)(=O)Nc1ccc(C)cc1C` (centres undefined): the inhibition was inactive: 1.57%. For `O=[N+]([O-])c1cc([N+](=O)[O-])c(Nc2ccccn2)c([N+](=O)[O-])c1`, the inhibition is inactive: 5.43%. For `Cc1c(NP(C)(=O)Oc2ccc(C(C)C)cc2)c(=O)n(-c2ccccc2)n1C` (centres undefined), the inhibition was inactive: 0%. The same measure for `CN(C)CCOC(=O)C(O)(c1ccccc1)C1CCCC1` (centres undefined): inactive: -2.82%. `COc1ccc(OP(C)(=O)Nc2ccccn2)cc1` (centres undefined): the inhibition is inactive: 4.07%. The same measure for `COc1ccccc1OP(C)(=O)Nc1ccc(Br)cc1` (centres undefined): inactive: -3.95%; for `CP(=O)(OCCOc1ccccc1)OCCOc1ccccc1`: inactive: -0.79%. The result for `CCCCCCCCCCCCCCCC1C[N+](C)(C)CCOP(C)(=O)O1` (centres undefined) reads inactive: 0.77%; that for `CP(=O)(Nc1ccc(Cl)cc1Cl)Oc1ccccc1` (centres undefined), inactive: -1.52%; that for `COc1ccc(OP(C)(=O)Nc2ccccc2Br)cc1` (centres undefined), inactive: 4.8%. The same measure for `COc1ccccc1OP(C)(=O)Nc1ccc(C)c(C)c1` (centres undefined): inactive: -4.29%; for `O=C1C(O)=C([N+](=O)[O-])C(=O)C(O)=C1[N+](=O)[O-]`: inactive: 6.37%; for `CCCCCOc1ccc(NP(C)(=O)Oc2ccc(Cl)cc2Cl)cc1` (centres undefined): inactive: -9.19%. For `CP(=O)(Nc1ccccc1)Oc1ccc(F)cc1` (centres undefined), the inhibition is inactive: 0.69%.

Take `CCN(CC)CCCOC(=O)C(O)(c1ccccc1)C1CCCCC1` (centres undefined): the inhibition is inactive: -8.18%. The result for `Cc1c([N+](=O)[O-])cc([N+](=O)[O-])c(Br)c1[N+](=O)[O-]` reads inactive: 11.2%.

Regarding `COc1ccc(OP(C)(=O)Nc2ccc(SC(F)(F)F)cc2)cc1` (centres undefined), the inhibition was inactive: -1.59%. The result for `CCOC(=O)c1ccc(NP(C)(=O)Oc2ccc(F)cc2)cc1` (centres undefined) reads inactive: -4.55%; that for `COc1ccc2c(c1O)-c1c(O)c(OC)cc3c1[C@H](C2)[N+](C)(C)CC3.O=[N+]([O-])c1cc([N+](=O)[O-])c([O-])c([N+](=O)[O-])c1[O-]`, inactive: 5.72%; that for `O=C(OCCN1CCN(CCOCc2ccccc2)CC1)C(O)(c1ccccc1)c1ccccc1`, inactive: -3.25%. `O=C(OC1CN2CCC1CC2)c1ccc([N+](=O)[O-])cc1` (centres undefined): the inhibition is inactive: 16.2%. On to `CC(C)c1ccc(OP(C)(=O)Nc2ccc(SC(F)(F)F)cc2)cc1` (centres undefined), for which the inhibition is inactive: -5.81%. As to `CP(=O)(Nc1ccccc1F)Oc1ccccc1` (centres undefined), the inhibition was inactive: -3.09%. The same measure for `O=[N+]([O-])c1cc([N+](=O)[O-])c(Nc2ccc(Cl)cc2)c([N+](=O)[O-])c1`: inactive: 35.6%. The result for `Cc1ccccc1NP(C)(=O)Nc1ccccc1C` reads inactive: -4.02%; that for `CP(=O)(Nc1ccc2c(c1)OCCO2)Oc1ccccc1` (centres undefined), inactive: -8.92%. The result for `CCOP(C)(=S)SCC(=O)NC(C)(CC)C(=O)O` (centres undefined) reads inactive: -13.9%. Regarding `CP(=O)(Nc1ccc(SC(F)(F)F)cc1)Oc1ccc(F)cc1` (centres undefined), the inhibition was inactive: -6.18%. The same measure for `Cc1c(C(c2ccc3c(c2)OCO3)c2c(C)n(C)n(-c3ccccc3)c2=O)c(=O)n(-c2ccccc2)n1C.O=[N+]([O-])c1cc([N+](=O)[O-])c(O)c([N+](=O)[O-])c1`: inactive: -0.88%; for `O=[N+]([O-])c1cc([N+](=O)[O-])c(NCC2CCS(=O)(=O)C2)c([N+](=O)[O-])c1` (centres undefined): inactive: 3.57%; for `Cc1cc(-c2cccc3ccccc23)c(C)cn1.O=[N+]([O-])c1cc([N+](=O)[O-])c(O)c([N+](=O)[O-])c1`: inactive: -7.11%. For `O=[N+]([O-])c1ccc(OP2(=O)COCCO2)cc1` (centres undefined), the inhibition is inactive: -12.3%.

Regarding `CN(C)CCOC(=O)C(O)(c1ccccc1)C1CCCCC1` (centres undefined), the inhibition is inactive: 0.55%. Take `COc1ccc(OP(C)(=O)Nc2cccc(Br)c2)cc1` (centres undefined): the inhibition is inactive: 2.42%.
